This is an account of results in PMC2987821.

The experiment has as its target Gp41-HR1 (HIV-1). Briefly: SPR. For orientation: Surface plasmon resonance follows binding to a sensor surface in real time, without labels.

The Kd is the free concentration of one partner at which half of the binding sites on the other are occupied at equilibrium, for simple one-to-one binding. High values mean lower affinity, low ones higher affinity. For orientation: koff means the first-order rate constant of dissociation. Broadly, the kon is a measure of how fast the partners come together. A lower kon goes with slow association. On to HK20 IgG (antibody), for which the Kd was found to be 3.3 nM, the koff came to 0.000727 s⁻¹ and the kon came to 220000 M⁻¹ s⁻¹.
